Measured values as given in article PMC6768434 (Chembiochem : a European journal of chemical biology, 2019).

Molecular target: didomain MnmC homolog from Vibrio cholerae (Vibrio cholerae, UniProt Q9KQ91)
Type: biochemical
Settings: 10 mM CEL, 5 μM MnmC, 4 h, 37 °C

CC(NCCCC[C@H](N)C(=O)O)C(=O)O (stereo partly shown) [CEL, N^ε-(carboxyethyl)lysine]
relative activity: their activities indicate that MnmC variants could more broadly catalyze CEL cleavage
